Results of unrelated studies side by side (data: NIAID ChemDB).

Common to all: growth or infection tests; species: HIV-1

Blank or dashed fields: not listed here. ECn: concentration that inhibits the pathogen or its effect by n%. Rows are shuffled and stem from different studies.

compound,measure,conditions,cell line,read by,strain,mutations,result
Cc1cn([C@H]2C[C@H](N=[N+]=[N-])[C@@H](CO)O2)c(=O)[nH]c1=O,EC90,,PBMC,p24,XM-T69SSS,RT-T69SSS L210W T215Y,56 µM
Cc1cn([C@@H]2O[C@H](CO[Si](C)(C)C(C)(C)C)C3(OS(=O)(=O)C=C3N)[C@H]2O[Si](C)(C)C(C)(C)C)c(=O)n(C)c1=O,EC50,,CEM,syncytia,IIIB NEV(RT-V106A),RT-V106A,2.5 µg/mL
COc1cc(C(F)(F)F)cc(S(=O)(=O)c2cccc(N)c2C#N)c1,EC50,,HeLa + HELA CD4+,β-galactosidase,,RT-K103N P225H,5.5 µM
O=c1c2ccccc2n2nnc3ccc(NCCCN4CCN(CCCNc5ccc6nnn7c8ccccc8c(=O)c5c67)CC4)c1c32,EC50,,PBL,p24,CLADE D,,0.072 µM
O=c1[nH]cnc2c1ncn2[C@H]1CC[C@@H](CO)O1,EC50,,HT4 + HT4 LacZ-1,plaque count,HXB2,RT-L74V Y181C,8.9 µM
CC(C)CN(C[C@@H](O)[C@H](Cc1ccccc1)NC(=O)[C@H](CC(N)=O)NC(=O)c1ccc2ccccc2n1)C(=O)NC(C)(C)C,EC50,,MT-4,p24,NL4-3,PR-L10R M46I,<0.2 µM
Cc1cn([C@H]2C[C@H](N=[N+]=[N-])[C@@H](CO)O2)c(=O)[nH]c1=O,EC50,,PBMC,RT activity,7295-1 NRTI resistant recombinant,RT-D67N T69N K70R M184V T215F K219Q,0.0008 µM
CC(C)Nc1cccnc1N1CCN(C(=O)c2cc3cc(NS(C)(=O)=O)ccc3[nH]2)CC1,EC50,,MT-4,MTT,IIIB,K103N,2.444 µM
C[C@H](Cn1cnc2c(N)ncnc21)OCP(=O)(O)O,EC50,,HeLa,luciferase,Recombinant,RT-M41L V118I M184V,0.5555 µM
Nc1ncnc2c1ncn2CCOCP(=O)(O)O,EC50,,MT-2,p24,L214F(RT-L214F),RT-L214F,0.92 µM
Nc1nc(NC2CC2)c2ncn([C@H]3C=C[C@@H](CO)C3)c2n1,EC50,,HeLa,luciferase,NL4-3 WT,,1.65 µM
CCc1cc(NCc2nc3c(Cl)ccc(Cl)c3o2)c(=O)[nH]c1C,EC50,,CEM,syncytia,IIIB BHAP(RT-L100I),RT-L100I,0.1 µg/mL
Nc1ncnc2c1ncn2CCOCP(=O)(O)O,EC50,,CEM,syncytia,IIIB TIBO R82150-resistant (RT L100I),RT-L100I,15 µM
CC(=O)Oc1ccc(/C=C/C(=O)O[C@H](C(=O)O)[C@H](OC(=O)/C=C/c2ccc(OC(C)=O)c(OC(C)=O)c2)C(=O)O)cc1OC(C)=O,EC50,,MT-4,,IIIB,,3.8 µM
Cc1cc(Br)cc(S(=O)(=O)c2cccc(N)c2C#N)c1,EC50,,HeLa + HELA CD4+,β-galactosidase,,RT-V106A,0.0024 µM
CC[C@H](C)[C@H](C(=O)O)N1C[C@H](CN2CCC(c3cc(Cc4ccc5c(c4)OCO5)nn3CC)CC2)[C@@H](c2cccc(F)c2)C1,EC90,50% human serum,HeLa,β-galactosidase,BaL,,0.1 µM
CCOc1cc(C)cc(S(=O)(=O)c2cccc(N)c2C#N)c1,EC50,,MT-4,cytopathic effect,IIIB,,0.43 µM
O=C1N(Cc2ccc(CO)cc2)[C@H](Cc2ccccc2)[C@H](O)[C@@H](O)[C@@H](Cc2ccccc2)N1Cc1ccc(CO)cc1,EC50,,PBMC,p24,Clinical isolate X,,0.09 µM
CC(C)CN(C[C@@H](O)[C@H](Cc1ccccc1)NC(=O)O[C@H]1CCOC1)S(=O)(=O)c1ccc(N)cc1,EC50,,PBMC,p24 / luminescence,BaL,,0.028 µM
Cc1cn([C@H]2C[C@H](N=[N+]=[N-])[C@@H](CO)O2)c(=O)[nH]c1=O,EC50,,PBMC,cytopathic effect / XTT,CLADE A,,0.01 µM
Cc1ccnc2c1NC(=O)c1cccnc1N2C1CC1,EC50,,CEM,syncytia,IIIB NEV(RT-V106A),RT-V106A,2.3 µg/mL
CC(C)CN(C[C@@H](O)[C@H](Cc1ccccc1)NC(=O)[C@@H](NC(=O)CNCc1cccc(F)c1)C(C)(C)C)S(=O)(=O)c1ccc(N)cc1,EC50,,PBMC,p24,NL4-3,,<0.02 µM
O=c1[nH]cnc2c1ncn2[C@H]1CC[C@@H](CO)O1,EC50,,MT-2,p24,Q151M(RT-Q151M),RT-Q151M,2.7 µM
Cc1cn([C@H]2C[C@H](N=[N+]=[N-])[C@@H](CO)O2)c(=O)[nH]c1=O,EC50,,HeLa,luciferase,NL4-3 WT,,0.0608 µM
Nc1ccn([C@H]2CC[C@@H](CO)O2)c(=O)n1,EC50,,CD4+HELA + HeLa,plaque count,HXB2,RT-V75T 184V,2 µM
Nc1ccn([C@H]2CC[C@@H](CO)O2)c(=O)n1,EC50,,JM,p24,GB8,,0.002 µM
C[C@@H](Cn1cnc2c(N)ncnc21)OCP(=O)(O)O,EC50,,CEM,syncytia,IIIB,,244 µM
Cc1cn([C@@H]2O[C@H](CO[Si](C)(C)C(C)(C)C)[C@@]3(OS(=O)(=O)C=C3N)[C@H]2O[Si](C)(C)C(C)(C)C)c(=O)[nH]c1=O,EC50,,CEM,syncytia,IIIB TIBO R82913 STR-1 (RT L100I Y181C),RT-L100I Y181C,3 µM
CC(=O)Nc1cccc(C#Cc2cc(C)c(Oc3ccnc(Nc4ccc(C#N)cc4)n3)c(C)c2)c1,EC50,,MT-4,MTT,IIIB,E138K,0.124 µM
N#Cc1c(N)cccc1Sc1cc(Cl)cc(Cl)c1,EC50,,MT-4,cytopathic effect,IIIB,,<5 µM
Cc1ccc(/C=C/c2cc(C)c(Oc3ccnc(Nc4ccc(C#N)cc4)n3)c(C)c2)cc1,EC50,,MT-4,MTT,IIIB,L100I,0.846 µM
O=C1N(Cc2ccc(CO)cc2)[C@H](Cc2ccccc2)[C@H](O)[C@@H](O)[C@@H](Cc2ccccc2)N1Cc1ccc(CO)cc1,EC95,,MT-4,p24,NL4-3,PR-M46I,0.2 µM
COC(=O)[C@H](C)NP(=O)(OC[C@@H]1C=C[C@H](n2cc(C)c(=O)[nH]c2=O)O1)Oc1ccc(Br)cc1,EC50,,PBMC,p24,S159-2 NNRTI-resistant clinical isolate,RT-K103N,<0.0001 µM
CCn1nc(Cc2ccc(O)cc2)cc1C1CCN(C[C@H]2CN([C@@H](C(=O)O)C(C)C)C[C@@H]2c2cccc(F)c2)CC1,EC50,,HeLa,β-galactosidase,BaL,,<0.0012 µM
O=c1[nH]cnc2c1ncn2[C@H]1CC[C@@H](CO)O1,EC50,,MT-4,p24,XM-Q151M,RT-A62V V75I F77C F116Y Q151M,<54 µM
CCNc1cccnc1N1CCN(C(=O)c2cc3cc(OC)ccc3[nH]2)CC1,EC50,,CEM,syncytia,IIIB BHAP(RT-L100I),RT-L100I,2.5 µg/mL
Nc1ccn([C@H]2C=C[C@@H](CO)O2)c(=O)n1,EC50,,CD4+HELA + HeLa,plaque count,HXB2,RT-V75T,3.7 µM
CC(C)CN(C[C@@H](O)[C@H](Cc1ccccc1)NC(=O)[C@@H](NC(=O)CNCc1cccc(F)c1)C(C)(C)C)S(=O)(=O)c1cccc(N)c1,EC50,,MT-4,p24,HXB2,,<0.0053 µM
CCC[C@@]1(CCc2ccccc2)CC(O)=C([C@H](CC)c2cccc(NS(=O)(=O)c3ccc(C(F)(F)F)cn3)c2)C(=O)O1,EC50,,PBMC,p24,Isolate N. Amer 7,,<0.16 µM
Cc1ccnc2c1NC(=O)c1cccnc1N2C1CC1,EC50,,C8166,p24 / ELISA,IIIB,DB-R,>400 µM
Cc1cc(C#Cc2ccc(C(=O)O)cc2)cc(C)c1Oc1ccnc(Nc2ccc(C#N)cc2)n1,EC50,,MT-4,MTT,IIIB,,0.063 µM
Cc1cn([C@H]2C[C@H](N=[N+]=[N-])[C@@H](CO)O2)c(=O)[nH]c1=O,EC50,,CEM,syncytia,IIIB TIBO R82913 STR-B22 (RT L100I Y188H),RT-L100I Y188H,0.045 µM
Cc1cc(C#N)cc(C)c1Oc1nc(Nc2ccc(C#N)cc2)nc(N)c1Br,EC50,,PBMC,absorbance,92UG029,,0.0034 µM
Fc1cccc(F)c1C1SCc2nc3ccccc3n21,EC50,,CEM + CEM-SS,cytopathic effect / XTT,IIIB,,2.33 µM
Cc1cn([C@H]2C[C@H](N=[N+]=[N-])[C@@H](CO)O2)c(=O)[nH]c1=O,EC90,,PBMC,p24,IIIB,,0.093 µM
CCn1nc(Cc2ccc(OC)cc2)cc1C1CCN(C[C@H]2CN([C@@H](C(=O)O)C3CCCCC3)C[C@@H]2c2cccc(F)c2)CC1,EC90,50% human serum,HeLa,β-galactosidase,BaL,,0.033 µM
Nc1ccn([C@H]2CC[C@@H](CO)O2)c(=O)n1,EC50,,MT-4,p24,HXB2D (RT-K65R),RT-K65R,5.6 µM
CCCOc1ccc(Cc2cc(C3CCN(C[C@H]4CN([C@@H](C(=O)O)[C@@H](C)CC)C[C@@H]4c4cccc(F)c4)CC3)n(CC)n2)cc1,EC90,50% human serum,HeLa,β-galactosidase,BaL,,0.1 µM
COC(=O)[C@H](C)NP(=O)(OC[C@@H]1C=C[C@H](n2cc(C)c(=O)[nH]c2=O)O1)Oc1ccc(Br)cc1,EC50,,PBMC,p24,4755-5 NRTI resistant recombinant,RT-M41L E44D D67N T69D Y118I M184V L210W T215Y,0.006 µM
O=c1[nH]cnc2c1ncn2[C@@H]1O[C@H](CO)C[C@@H]1F,EC50,,MT-2,p24,RT P119S L214F,RT-P119S L214F,38 µM
CCC(=O)c1ccc(F)c([C@@H]2C[C@@H]2NC(=O)Nc2ccc(C#N)cn2)c1O,EC50,,PBMC,absorbance,92BR025,,0.0002 µM
CCn1nc(Cc2ccc(Oc3ccccc3)cc2)cc1C1CCN(C[C@H]2CN([C@@H](C(=O)O)C3CCCCC3)C[C@@H]2c2cccc(F)c2)CC1,EC50,50% human serum,HeLa,β-galactosidase,BaL,,<0.1 µM
Nc1ncnc2c1ncn2[C@@H]1O[C@H](CO)C[C@@H]1F,EC50,,MT-2,p24,HXB2D,,5.3 µM
Cc1cn([C@H]2C[C@H](N=[N+]=[N-])[C@@H](CO)O2)c(=O)[nH]c1=O,EC90,,PBMC,p24,477 clinical isolates delavirdine-resistant,,<0.3 µM
CC(C)=CCN1Cc2cc(Cl)cc3[nH]c(=S)n(c23)C[C@@H]1C,EC50,,CEM,syncytia,IIIB,,0.02 µg/mL
CC(C)(C)NC(=O)[C@@H]1CN(Cc2cccnc2)CCN1C[C@@H](O)C[C@@H](Cc1ccccc1)C(=O)N[C@H]1c2ccccc2C[C@H]1O,EC50,,PBMC,RT activity,52534-2 NRTI resistant recombinant,RT-M41L T69ins L74V M184V L210W T215Y,0.0122 µM
CCOCn1c(Cc2cc(C)cc(C)c2)c(CC)c(=O)[nH]c1=O,EC50,,CEM,syncytia,IIIB TIBO R82913 STR-2 (RT K103N),RT-K103N,0.01 µM
Cc1cc(O)cc(S(=O)(=O)c2cccc(N)c2C#N)c1,EC50,,HeLa + HELA CD4+,β-galactosidase,,RT-V108I Y181C,36 µM
CCOc1ccc(Cc2cc(C3CCN(C[C@H]4CN([C@@H](C(=O)O)[C@H](C)CC)C[C@@H]4c4cccc(F)c4)CC3)n(CC)n2)cc1F,EC50,50% human serum,HeLa,β-galactosidase,BaL,,<0.033 µM
Cc1cn([C@H]2C[C@H](N=[N+]=[N-])[C@@H](CO)O2)c(=O)[nH]c1=O,EC50,,MT-2,cytopathic effect / trypan blue,IIIB/LAI,,0.004 µM
Nc1ncnc2c1ncn2CCOCP(=O)(O)O,EC50,,C8166,syncytia,IIIB,,10 µM
Cc1ccnc2c1NC(=O)c1cccnc1N2C1CC1,EC50,,MAGI,β-galactosidase,AZT-resistant (RT M41L T215Y K219Q) RTMN,RT-M41L T215Y K219Q,0.035 µM
CCOc1ccc(Cc2cc(C3CCN(C[C@H]4CN([C@@H](C(=O)O)C(C)C)C[C@@H]4c4cccc(F)c4)CC3)n(CC)n2)cc1F,EC50,50% human serum,HeLa,β-galactosidase,BaL,,<0.1 µM
CC(C)CN(C[C@@H](O)[C@H](Cc1ccc(F)cc1)NC(=O)O[C@H]1CCO[C@H]2OCC[C@H]21)S(=O)(=O)c1ccc2nc(NC(C)C)sc2c1,EC50,,MT-2,MTT,LAI,,0.0002 µM
CCn1nc(Cc2ccc3c(c2)OCO3)cc1C1CCN(C[C@H]2CN([C@@H](C(=O)O)C(C)(C)C)C[C@@H]2c2cccc(F)c2)CC1,EC90,50% human serum,HeLa,β-galactosidase,BaL,,0.033 µM
CCn1c(=O)c(C)cn([C@@H]2O[C@H](CO[Si](C)(C)C(C)(C)C)C3(OS(=O)(=O)C=C3N)[C@H]2O[Si](C)(C)C(C)(C)C)c1=O,EC50,,CEM,syncytia,IIIB TIBO R82913 STR-1 (RT L100I Y181C),RT-L100I Y181C,>50 µM
CC[C@H](C)[C@H](C(=O)O)N1C[C@H](CN2CCC(c3cc(Cc4cccc5ccccc45)nn3CC)CC2)[C@@H](c2cccc(F)c2)C1,EC50,50% human serum,HeLa,β-galactosidase,BaL,,<0.011 µM
Cc1c(C#N)cc(C(F)F)cc1Oc1c(C(F)(F)C(F)F)ncn(Cc2cc(F)c[nH]c2=O)c1=O,EC50,,,RT activity / fluorescence,,K103N,0.0251 µM